Results deposited as PubChem BioAssay AID1224833 (University of Georgia, 2016).

Aim: 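Host factors restraining rotavirus as candidate antiviral genes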 (primary screen)
Cell system: monkey MA104 kidney cells
Knock-down reagent: siRNA pool against human genes, 50 nM
Timing: 48 h knock-down before infection; read 24 h after infection
Challenge: infection with rotavirus strain RV3 two days after transfection; infectious dose for this stage not given
Measured: 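z-score of rotavirus antigen signal per well, from a fluorescent immunoassay, relative to non-targeting control wells on the same plate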
Reading the numbers: z-score vs non-targeting control: higher = more rotavirus replication than with non-targeting control
Hit rule: In these data the active calls have z-score vs non-targeting control at about -1 or lower, or at about 1 or higher
Meaning of the calls: active = z-score beyond 1 either way; inactive = z-score within 1 of zero
The deposit covers about 12,000 reagents; below is a random part of them. Of all reagents, about 5,600 (46%) were called active. 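Active calls cover z-scores past 1 in both directions, so they include lowered as well as raised rotavirus replication.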

Target gene,z-score vs non-targeting control,call
CD164,-1.94,active
MB21D2,-0.832,inactive
RNMT,1.42,active
CXCR6,-0.597,inactive
PCBP1,-0.622,inactive
AMPD1,-2.63,active
UPP2,1.16,active
DCAF17,1.86,active
ZNF254,-1.34,active
TMEM248,1.7,active
CCIN,-0.224,inactive
MOB1B,-0.823,inactive
IL27RA,-1.24,active
TLN2,1.16,active
SDHD,-1.22,active
OR2T10,0.187,inactive
SLC35F2,0.727,inactive
C1QTNF5,-0.783,inactive
GANC,-1.4,active
UGT1A4,-1.29,active
OR2A2,0.705,inactive
CSF2RA,-1.16,active
ADRA2B,-0.567,inactive
EXOSC2,0.619,inactive
RAB8B,0.757,inactive
SUPT6H,1.45,active
NAGS,0.529,inactive
EP300,-3.18,active
SERPINA10,-1.19,active
FKBP4,-1.37,active
TSPAN3,-0.2,inactive
MPPE1,0.783,inactive
ACBD5,2.31,active
COA4,2.02,active
NUFIP1,0.22,inactive
LRIT1,-0.2,inactive
COL18A1,-0.946,inactive
SRM,-0.793,inactive
SLC6A5,0.608,inactive
PLCB1,-1.14,active
ZNF133,-0.354,inactive
DNAI4,0.76,inactive
INSL4,0.0492,inactive
ABHD16A,0.784,inactive
FARP2,-0.553,inactive
ANO10,0.866,inactive
PSD2,0.578,inactive
DDIT4L,1.2,active
TAS2R1,-0.0438,inactive
FRG2B,-0.808,inactive
GDPD5,-0.26,inactive
SLC25A21,-2.05,active
DRC11,-1.7,active
TTN,-1.32,active
ZSCAN1,0.0846,inactive
FUBP1,-0.647,inactive
TMEM208,-0.366,inactive
ARX,-0.951,inactive
DCLRE1B,-1.01,active
GPR174,0.725,inactive
SLC25A26,-0.502,inactive
RND1,-0.637,inactive
PLP1,0.9,inactive
DDX24,1.55,active
ANKHD1-EIF4EBP3,-1.47,active
SPDL1,-2,active
SMARCAD1,-1.87,active
FAM91A1,0.512,inactive
NFAT5,-1.09,active
CD40LG,-1.63,active
LSM12,-0.979,inactive
EGR4,-0.635,inactive
CCDC183,-0.179,inactive
APC2,0.677,inactive
SLC22A16,0.659,inactive
PSMD6,1.73,active
ECSCR,-0.354,inactive
TGFB1I1,-1.59,active
SPON1,0.242,inactive
NAALADL2,0.614,inactive
KDSR,-1.07,active
ZNF792,0.492,inactive
CDCA3,1.53,active
TBC1D2,0.0479,inactive
SAR1A,0.715,inactive
TRMT5,-0.0441,inactive
RPS3,-0.0161,inactive
TAS2R9,1.27,active
KRTAP3-1,-2.61,active
PRR5-ARHGAP8,-1.09,active
ANGPTL6,0.96,inactive
XKR3,-0.565,inactive
BARHL2,-0.902,inactive
MRPS5,1.13,active
OR4F15,0.959,inactive
ORM2,0.554,inactive
COPG1,0.699,inactive
ZNF460,0.133,inactive
ATF5,-1.27,active
ATP1B2,1.49,active
INO80C,-1.12,active
FOXK2,0.648,inactive
SMPD2,3.44,active
CYFIP2,0.25,inactive
OSBPL9,-1.46,active
FUNDC2,-0.923,inactive
STX3,1.05,active
DEFA5,-0.221,inactive
PTGES3,-1.34,active
GALNT16,-1.44,active
CTC1,1.76,active
PGBD1,0.223,inactive
NHSL3,-1.96,active
CTCF,-2.11,active
PRL,-1.7,active
CES1,-1.54,active
PPP1R3B,-1.32,active
ZFP82,-0.884,inactive
DHX30,-1.12,active
CNN2,-0.0263,inactive
POFUT2,0.983,inactive
HOXA9,1.55,active
GTF2E2,0.6,inactive
HLA-DMB,-0.634,inactive
PLAA,0.82,inactive
RUNDC1,-0.553,inactive
AMY2B,-2.38,active
MAGEA4,-1.26,active
HTATSF1,0.799,inactive
CD2AP,-1.97,active
UBR7,-0.974,inactive
ZNF554,1.5,active
MAGEC2,-1.33,active
GAS6,-1.69,active
GAPT,2.19,active
CTRC,0.919,inactive
CABS1,0.974,inactive
MSH4,-1.02,active
CD244,0.693,inactive
NMBR,1.41,active

20 of these entries in another layout.
GPR174
- z-score vs non-targeting control: 0.725
- call: inactive

SLC25A26
- z-score vs non-targeting control: -0.502
- call: inactive

RND1
- z-score vs non-targeting control: -0.637
- call: inactive

PLP1
- z-score vs non-targeting control: 0.9
- call: inactive

DDX24
- z-score vs non-targeting control: 1.55
- call: active

ANKHD1-EIF4EBP3
- z-score vs non-targeting control: -1.47
- call: active

SPDL1
- z-score vs non-targeting control: -2
- call: active

SMARCAD1
- z-score vs non-targeting control: -1.87
- call: active

FAM91A1
- z-score vs non-targeting control: 0.512
- call: inactive

NFAT5
- z-score vs non-targeting control: -1.09
- call: active

CD40LG
- z-score vs non-targeting control: -1.63
- call: active

LSM12
- z-score vs non-targeting control: -0.979
- call: inactive

EGR4
- z-score vs non-targeting control: -0.635
- call: inactive

CCDC183
- z-score vs non-targeting control: -0.179
- call: inactive

APC2
- z-score vs non-targeting control: 0.677
- call: inactive

SLC22A16
- z-score vs non-targeting control: 0.659
- call: inactive

PSMD6
- z-score vs non-targeting control: 1.73
- call: active

ECSCR
- z-score vs non-targeting control: -0.354
- call: inactive

TGFB1I1
- z-score vs non-targeting control: -1.59
- call: active

SPON1
- z-score vs non-targeting control: 0.242
- call: inactive
